Screening data, single-dose tests

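Growth of Mycobacterium tuberculosis over 3 days (7H9 medium with glucose and tyloxapol); the read-out is not stated. Tested at 50 µM. Direction is inferred from retests: higher values go with more growth inhibition. About 69,000 compounds were tested under these conditions; 1.1% (about 760) showed 50% or more at least once.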

Each number is a percent effect as filed.
How 0% and 100% were set is not recorded. Most values in the screen are low, and negative values occur.
The entries come from a sample that favours strong results.
Two or more numbers in one place are separate tests of the same structure; such repeats can differ widely.

SMILES,Percent Effect
COC(=O)CCC(=O)NC(C)Cc1ccccc1Br (stereo not given),44.06
Cc1nc(-c2cccc(C(=O)O)c2)cc(C2CCCN(C(C)C)C2)n1 (stereo not given),-38.73
COc1ccc(-c2nc(CCNCc3ccncc3)co2)cc1,30.3
CCCc1nc(C(=O)N2CCN(C(=O)OC)CC2)cs1,-17.59 & 0.4093
Fc1cccc(-c2nnn3c2COC(CNCc2cccs2)C3)c1.O=C(O)C(F)(F)F (stereo not given),2.575 & 10.66
COC(=O)COn1c(SCC(=O)OC)nc2ccccc2c1=O,20.31
COc1ccc(CC(=O)NCCNS(=O)(=O)c2ccc(C)cc2)cc1,2.682
COCCNC(=O)NCc1ccc(OC(C)C)c(F)c1,9.403
COCCC(=O)NCC(O)c1c(F)cccc1F (stereo not given),7.197
CCc1ncc(CN(CCc2ccccc2)Cc2cccs2)cn1.O=C(O)CC(O)(CC(=O)O)C(=O)O,55.69
CC(C)C[C@H](N)COc1cccc(F)c1Oc1cccc(Cl)c1,107.5
COCCN1CCC(NCc2cccc(C)c2)C1 (stereo not given),-14.49
Cc1ncoc1C(=O)N1CCOC(CCCC(C)C)C1 (stereo not given),10.76 & 2.226
Fc1ccc(CN2CCCC3(CCN(Cc4ncc[nH]4)C3)C2)cc1F (stereo not given),51.87
Cc1[nH]ncc1C(=O)NCC1CCC2(CC1)OCCO2,12.41 & -5.693
COc1ccc(OC)c(CNCc2c(C(C)C)nn(C)c2N(C)C)c1,12.92
CCc1c(C)n(CCOC)c2nc3ccccc3n2c1=O,3.635 & -0.4743
COc1cccc(F)c1C(C)NC(=O)NCc1ccnc(C)n1 (stereo not given),1.062
CCc1cnc(C)nc1N1CCN(Cc2ccc(-c3cc[nH]n3)o2)CC1,0.522
Cc1cc(Cc2ccccc2)cc(C2CCCNC2)n1 (stereo not given),5.151
CCNc1ncc(C(=O)N2CCC(c3ccccc3C(=O)O)C2)cn1 (stereo not given),120.3 & -0.4713
CS(=O)(=O)N1CCC(OCCCc2ccccc2)C1 (stereo not given),20.12 & 2.779
Cc1nnc(CN(Cc2ccccc2C(F)(F)F)C2CC2)o1,22.6 & 10.5
Cc1cnc(NC(=O)c2csc(NCC(C)C)n2)s1,59.28
O=S(=O)(CCN1CCCC1Cn1cccn1)c1ccccc1 (stereo not given),-3.724
O=C(O)C(F)(F)F.[H][C@@]12CN(c3cccnc3)CC[C@]1([H])CN(c1cccc(F)c1)C2,34.96
COC1CCCN(C2CCN(c3cccc(-c4csc(C)n4)c3)CC2)C1 (stereo not given),26.82
Cc1nnc(CN2CCC(Oc3ccc(F)cc3)CC2)o1,0.9496 & -1.673
COCCCNC(=O)Nc1ccc(OCc2noc(C3CC3)n2)cc1,-17.19 & 2.74
CC(=O)NCC(=O)N1CCc2nc(C)nc(C)c2CC1,-20.15 & -2.065
Cc1ccc(N2CCOCC3(CCCN(c4ncc(F)cn4)C3)C2)nn1 (stereo not given),10.87
CCc1noc(C)c1C(=O)NCc1ccccn1,4.974 & -18.55
O=C(COCC(F)(F)F)NC1CCCc2cc(OC(F)F)ccc21 (stereo not given),51.08
Cc1cnn(CCC(=O)N2CCCN(c3nc(C)cs3)CC2)c1,-16.66
CNC(=O)C(C)CN(C)C(=O)Nc1cc(F)cc(Br)c1 (stereo not given),12.06 & 1.783
CCN1C(=O)C2(CCOCC2)c2cc(NC(=O)c3cnccn3)ccc21,-9.701 & -14.15
Cc1ccc(OCC(=O)NCc2ccccc2F)nc1,12.3
CCS(=O)(=O)N1CCCCC1c1nc(C)no1 (stereo not given),9.511
[H][C@]12CC[C@]([H])(CN(Cc3ccc(-n4cccn4)cc3)C1)N(CCC)C2,81.87
[H][C@@]12C[C@@H](OC)C[C@]1([H])CN(C(=O)c1ccc(C)s1)C2,19.01
O=C(NCCN1CCCCC1)c1nc2ccccc2c(=O)[nH]1,-12.42
COCCNS(=O)(=O)c1cccc2c1CN(C(=O)c1ccoc1)CC2,97.94 & -7.849
N[C@@H]1CCC[C@@H](Oc2ccc(F)cc2Oc2ccccc2)[C@@H]1O,23.9
O=C(c1cc(Br)c[nH]1)N1CCN(Cc2ccco2)CC1,0.7697
Cc1cc(-n2cncn2)ccc1C(=O)N(C)CC(F)(F)C(F)(F)F,-1.356
[H][C@]12CCN(C(=O)C3CCCO3)CC[C@@]1([H])S(=O)(=O)N(CC)C2 (stereo not given in full),5.837 & 1.565
CCc1nn(C)c(Cl)c1CN1CCN(c2ccc(Cl)nn2)CC1,6.785 & -17.61
Cc1cccc(Cc2cc(C)nc(C3CCCNC3)c2)c1 (stereo not given),57.01
N#Cc1ccc(OC2CCN(C(=O)c3ccc(Br)o3)CC2)nc1,6.087
O=C(NCCc1ccccc1Cl)NCC1(O)CCSC1 (stereo not given),27.55
Cc1cc(NCCO)nc(-c2ccccc2O)n1,3.411 & 4.539
Cl.O=c1c2sccc2nc2n1CCN(Cc1ccccc1C(F)(F)F)CC2,28.7
[H][C@@]12CCN(Cc3ccco3)CC[C@]1([H])[C@@H](COCC1CC1)CN(C)C2=O,-9.897 & 3.043
NCC(c1ccc(Cl)cc1)N1CCc2sccc2C1 (stereo not given),40.58
COc1ccc(F)c(-c2cc(NCCO)nc(N)n2)c1,-19.12 & 6.149
O=C(NCc1ccc(-n2cncn2)nc1)c1cc[nH]n1,-20.34
CCSc1nnc([C@@H](N)CC(C)C)o1.Cl,18.47 & 14.08
Cc1ccc(-n2cc(CN3CCOCC3)c(-c3cccc(C)c3)n2)cc1,44.6
CCC(C)NC(=O)c1cncc(Br)c1 (stereo not given),-1.287
Cc1cccc(CN2CCCC3(CCN(C4CCSCC4)C3)C2=O)c1 (stereo not given),54.73 & 53.15
CCCN1CCC(NC(=O)Nc2ccc(OC)c(OC)c2)CC1,14.08
COCc1noc(-c2nn(-c3ccc(F)c(F)c3)c3c2CCC3)n1,52.09
Cn1cccc1C(O)CNC(=O)c1ccc(C(F)(F)F)cc1 (stereo not given),9.228
CC(C(=O)N(C)C)S(=O)(=O)c1cc2c(cc1Cl)OCCO2 (stereo not given),17.87
O=C(CNc1ccc(F)cc1OCC(F)(F)F)NCc1ccco1,19
CC(C)c1cc(CN2CCC(N)CC2)no1,6.803
CCc1ncc(CN2CCOC(Cc3cccc(F)c3)C2)cn1 (stereo not given),42.75
O=C(O)CSc1nccc(-c2ccc3c(c2)OCO3)n1,22.92
N#CCCCn1nnc(C2(NC(=O)c3ccccc3)CCCC2)n1,-11.76
FC(F)(F)Sc1ccccc1NCc1nc(C2CC2)no1,52.77 & 53.47
CN(C)c1nc2c(c(N3CCc4ccccc4C3)n1)CCNC2,59.44
O=C(Cc1cccs1)N1CC(c2nc(-c3cnccn3)no2)C1,-0.5947 & -14.13
O=C(O)c1ccc(N2CCC(Oc3ccc(Cl)cc3)CC2)nc1,3.926
Cc1cc(C)cc(CN2CCCC2c2noc(C)n2)c1 (stereo not given),25.54
CCN(C(=O)CN1CCCC1c1cccs1)c1ccccc1C (stereo not given),58.44
COc1ccccc1N1CCC(CNCc2cccc(OC)c2OC)C1 (stereo not given),54.67
COCc1noc(-c2ccc(N3CCCC3c3ccc(F)cc3)nc2)n1 (stereo not given),-5.276
CCc1ccc2nc(NCCOCCO)cc(C)c2c1,2.09
COc1ccc(C2CCCN2c2cnc3ccccc3n2)c(OC)c1 (stereo not given),6.461
CCc1cc(N(C)Cc2ccnc(C)c2)n2nc(C)c(C)c2n1,-8.359
CN(CC1CCN(c2ccccc2)C1)c1ccc(Cn2ccnc2)cn1 (stereo not given),59.97 & 48.5
CCC1CN(C(=O)c2cc(CN(C)CCc3ccccc3)on2)CCO1 (stereo not given),-3.761
CCCc1nnc(N2CC[C@](C)(O)[C@H](C)C2)s1,-3.949

Measurements from “University of Dundee, Small-Polar-MMV Screening Library” (2021), ChEMBL document CHEMBL3988442.